## RC index of single-base changes in HIV-1 integrase

Protein: integrase of HIV-1 NL4-3, numbered from its first residue. The source prints no sequence; the chain below is taken from UniProt P12497, a closely related isolate, and fits the source at the 252 positions it covers.
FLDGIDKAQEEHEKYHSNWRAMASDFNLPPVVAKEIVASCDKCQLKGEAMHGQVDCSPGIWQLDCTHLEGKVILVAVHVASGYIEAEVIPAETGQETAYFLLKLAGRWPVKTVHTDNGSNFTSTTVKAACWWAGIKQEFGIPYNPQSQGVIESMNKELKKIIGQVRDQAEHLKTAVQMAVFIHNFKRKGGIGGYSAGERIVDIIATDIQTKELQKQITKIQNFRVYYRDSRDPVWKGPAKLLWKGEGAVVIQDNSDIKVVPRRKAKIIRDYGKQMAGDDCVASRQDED
Effects on overlapping genes or RNA elements are not listed.

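Seven fragments of pNL4-3 were mutated by error-prone PCR, and each virus pool was passaged in CEM T cells. Sequencing gave the RC index: frequency after two rounds over frequency in the input plasmid.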

A higher RC index is a better tolerated change; approximate classes are lethal up to 0.1, attenuated to 0.2, tolerated above. A change reads original residue, position, new residue. Input reads are the counts in the plasmid library. Since each clone held several changes (about five per kb), neutral changes can read low.

| change | base | input reads | replication capacity index |
|---|---|---|---|
| F1I | T4230A | 544 | 0.128 |
| F1L | T4230C | 140 | 0.129 |
| F1L | T4232G | 134 | 0.0673 |
| L2I | T4233A | 318 | 0.0496 |
| L2V | T4233G | 61 | 0.111 |
| L2S | T4234C | 322 | 0.0700 |
| L2F | A4235T | 397 | 0.0568 |
| D3Y | G4236T | 288 | 0.117 |
| D3V | A4237T | 384 | 0.0470 |
| G4V | G4240T | 291 | 0.101 |
| I5V | A4242G | 389 | 0.0811 |
| I5T | T4243C | 473 | 0.0429 |
| D6H | G4245C | 52 | 0.520 |
| D6G | A4246G | 253 | 0.0624 |
| D6V | A4246T | 479 | 0.0377 |
| D6E | T4247A | 415 | 0.0326 |
| A8D | C4252A | 86 | 0.184 |
| A8V | C4252T | 579 | 0.0818 |
| Q9R | A4255G | 436 | 0.0879 |
| Q9H | A4256C | 68 | 0.0663 |
| E10G | A4258G | 248 | 0.109 |
| E10V | A4258T | 196 | 0.0345 |
| E10D | A4259C | 102 | 0.0221 |
| E10D | A4259T | 417 | 0.0703 |
| E11K | G4260A | 187 | 0.868 |
| E11G | A4261G | 378 | 0.0596 |
| E11V | A4261T | 220 | 0.0410 |
| E11D | A4262T | 506 | 0.0579 |
| E13K | G4266A | 255 | 0.875 |
| E13V | A4267T | 196 | 0.0460 |
| K14E | A4269G | 328 | 0.0275 |
| K14R | A4270G | 298 | 0.0530 |
| K14N | A4271T | 510 | 0.0442 |
| Y15C | A4273G | 255 | 0.0442 |
| H16N | C4275A | 180 | 0.301 |
| H16R | A4276G | 408 | 0.0995 |
| H16L | A4276T | 489 | 0.0876 |
| S17N | G4279A | 315 | 0.236 |
| N18Y | A4281T | 312 | 0.0795 |
| N18I | A4282T | 795 | 0.0794 |
| W19R | T4284C | 439 | 0.0873 |
| W19G | T4284G | 327 | 0.117 |
| W19L | G4285T | 148 | 0.168 |
| R20K | G4288A | 645 | 0.308 |
| M22K | T4294A | 483 | 0.0280 |
| M22T | T4294C | 392 | 0.0748 |
| A23D | C4297A | 356 | 0.0760 |
| S24C | A4299T | 496 | 0.0500 |
| S24I | G4300T | 232 | 0.0680 |
| S24R | T4301A | 389 | 0.0406 |
| S24R | T4301G | 39 | 0.0578 |
| D25V | A4303T | 613 | 0.0294 |
| D25E | T4304A | 618 | 0.0657 |
| F26L | T4305C | 216 | 0.0939 |
| F26V | T4305G | 57 | 0.0396 |
| F26Y | T4306A | 424 | 0.0106 |
| F26L | T4307G | 54 | 0.0835 |
| N27D | A4308G | 188 | 0.144 |
| N27Y | A4308T | 285 | 0.0870 |
| N27I | A4309T | 493 | 0.0457 |
| N27K | C4310A | 101 | 0.134 |
| L28I | C4311A | 679 | 0.0465 |
| P29S | C4314T | 496 | 0.0818 |
| P30T | C4317A | 140 | 0.129 |
| P30S | C4317T | 523 | 0.0991 |
| V31L | G4320T | 124 | 0.109 |
| V31E | T4321A | 502 | 0.0359 |
| V32L | G4323C | 225 | 0.0802 |
| V32A | T4324C | 382 | 0.0826 |
| A33T | G4326A | 709 | 0.156 |
| K34I | A4330T | 351 | 0.0385 |
| E35V | A4333T | 338 | 0.0467 |
| E35D | A4334T | 467 | 0.0483 |
| I36V | A4335G | 306 | 0.0663 |
| I36L | A4335T | 465 | 0.0533 |
| I36M | A4337G | 302 | 0.164 |
| V37L | G4338T | 290 | 0.0622 |
| A38D | C4342A | 142 | 0.0794 |
| A38V | C4342T | 666 | 0.139 |
| S39N | G4345A | 696 | 0.155 |
| C40S | T4347A | 303 | 0.0446 |
| C40R | T4347C | 435 | 0.109 |
| K42T | A4354C | 144 | 0.0313 |
| K42I | A4354T | 607 | 0.0446 |
| K42N | A4355C | 145 | 0.0466 |
| K42N | A4355T | 370 | 0.0244 |
| C43G | T4356G | 57 | 0.158 |
| C43Y | G4357A | 407 | 0.0997 |
| C43S | G4357C | 185 | 0.122 |
| Q44E | C4359G | 82 | 0.0550 |
| Q44L | A4360T | 876 | 0.0342 |
| Q44H | G4361T | 479 | 0.0804 |
| L45Q | T4363A | 643 | 0.0965 |
| K46E | A4365G | 797 | 0.0402 |
| K46T | A4366C | 159 | 0.0753 |
| K46N | A4367C | 111 | 0.0540 |
| G47W | G4368T | 278 | 0.151 |
| E48V | A4372T | 247 | 0.0566 |
| A49D | C4375A | 140 | 0.0570 |
| M50I | G4379C | 74 | 0.108 |

A selection of 5 entries from above:

Q9R (base A4255G, input reads 436) read 0.0879.
N27I (base A4309T, input reads 493) read 0.0457.
P30S (base C4317T, input reads 523) read 0.0991.
N27D (base A4308G, input reads 188) read 0.144.
S24R (base T4301G, input reads 39) read 0.0578.

An index over 1, which the authors read as above wild type, was rare (1.9% of all changes in the genome). Nucleotide positions follow pNL4-3.

The measurements come from Al-Mawsawi et al. 2014 (doi:10.1186/s12977-014-0124-6).